Anti-infective test results gathered from many reports (values: NIAID ChemDB through PubChem).

Shared fields: tests on isolated targets

ICn: concentration for n% inhibition. Lines come from different laboratories, so protocols vary. Percent inhibition refers to the dose given; in toxicity tests it is the harm to the cells. Blank or dashed fields: not listed here.

structure,strain or isolate,endpoint,read by,protein,organism,dose,result
CC(=O)N[C@H]1C(O)O[C@H](COC(C)=O)[C@@H](OC(C)=O)[C@H]1O[C@@H]1O[C@@H](C)[C@H](OCc2ccccc2)[C@@H](OCc2ccccc2)[C@H]1OCc1ccccc1,,IC50,,Galactosyltransferase,Mycobacterium tuberculosis,,240 µg/mL
CCCCCCCCCCCC1=CC(=O)C(OC)=C(OC)C1=O,,inhibition,,NADH dehydrogenase,Mycobacterium tuberculosis,40 µM,76%
O=c1[nH]c(=O)n([C@H]2C[C@H](O)[C@@H](CO)O2)cc1Br,,IC50,,Thymidine monophosphate kinase,Mycobacterium tuberculosis,,5 µM
O=C(N[C@H]1[C@@H](OC2C[C@H](CO)[C@@H](O)[C@@H](O)[C@H]2O)O[C@H](CO)[C@@H](O)[C@@H]1O)c1ccc2sccc2c1,,inhibition,,MYCOTHIOL-S-CONJUGATE AMIDASE,Mycobacterium tuberculosis,50 µM,<10%
O=c1[nH]c(=O)n([C@H]2C[C@H](O)[C@@H](CO)O2)cc1F,,IC50,,Thymidine monophosphate kinase,Mycobacterium tuberculosis,,212 µM
N=C(N)CCCCNC(=O)/C(Cc1cc(Br)c(OCCCN)c(Br)c1)=N/O,,IC50,,MYCOTHIOL-S-CONJUGATE AMIDASE,Mycobacterium tuberculosis,,3 µM
Cc1ccccc1C1NC(=S)N=C2C1C(=O)N=C1SC([N+](=O)[O-])=CN12,,inhibition,absorbance,CysK1,Mycobacterium tuberculosis,100 µM,84.1%
CO/N=C1\CN(c2nc3c(cc2F)c(=O)c(C(=O)O)cn3C2CC2)CC1CN,H37Rv,IC50,gel,DNA gyrase,Mycobacterium tuberculosis,,11 µg/mL
Cc1cn([C@@H]2O[C@H](COP(=O)([O-])[O-])[C@@H](O)[C@H]2N)c(=O)[nH]c1=O,,Ki,,Thymidine monophosphate kinase,Mycobacterium tuberculosis,,19.01 µM
CN(C[C@H](O)[C@H](O)[C@H](O)CO)c1[nH]c(=O)[nH]c(=O)c1N,,Ki,,Lumazine synthase,Mycobacterium tuberculosis,,341 µM
NNC(=O)c1ccc(S(=O)(=O)NC[C@H]2O[C@@H](n3ccc(=O)[nH]c3=O)[C@H](O)[C@@H]2O)cc1,,inhibition,,UDP-galactopyranose mutase,Mycobacterium tuberculosis,25 µM,12%
C=Cc1nsc(=O)o1,,IC50,broth dilution / fluorescence,Proteasome,Mycobacterium tuberculosis,,27 µM
Nc1ccc2cc(-n3nncc3COc3nc(-c4cccnc4)sc3C=O)c(=O)oc2c1,,IC50,gel / absorbance,DNA gyrase,Mycobacterium tuberculosis,,1.7 µM
Cc1cn([C@@H]2O[C@H](COP(=O)([O-])[O-])[C@@H](N)[C@H]2O)c(=O)[nH]c1=O,,Ki,,Thymidine monophosphate kinase,Mycobacterium tuberculosis,,55.08 µM
CCc1ccccc1/C=C/c1nsc(=O)o1,,IC50,broth dilution / fluorescence,Proteasome,Mycobacterium tuberculosis,,68.5 µM
O=c1[nH]c(=O)n([C@H]2C[C@H](O)[C@@H](CO)O2)cc1/C=C/Br,,IC50,,Thymidine monophosphate kinase,Mycobacterium tuberculosis,,625 µM
COc1cc(C[C@@H](C)[C@@H](C)Cc2ccc(O)c(OC)c2)ccc1O,Rv1284,Ki,,Rv1284,Mycobacterium tuberculosis,,9.1 µM
O=c1onc(-c2ccccc2)o1,,IC50,broth dilution / fluorescence,Proteasome,Mycobacterium tuberculosis,,31.5 µM
COc1cnc2ccc(=O)n(CCN3CCC(NCc4cc5c(cn4)OCCO5)CC3)c2c1,,IC50,gel,DNA gyrase,Mycobacterium tuberculosis,,2.8 µM
Nc1ccc2nccc(-n3cncn3)c2c1,,Ki,absorbance,CYP121,Mycobacterium tuberculosis,,50 µM
O=Cc1sc(-c2ccccc2)nc1OCc1cnnn1-c1cc2ccc(O)cc2oc1=O,,IC50,gel / absorbance,DNA gyrase,Mycobacterium tuberculosis,,>25 µM
CCn1cc(C(=O)O)c(=O)c2cc(F)c(N3CCNCC3)nc21,H37Rv,IC50,gel,DNA gyrase,Mycobacterium tuberculosis,,50 µg/mL
CCOC(=O)c1ccccc1S(=O)(=O)NC(=O)Nc1nc(Cl)cc(OC)n1,,Ki,,Acetohydroxyacid synthase,Mycobacterium tuberculosis,,9.8 µM
Nc1nc(N)c2cc(NC3c4ccccc4C=Cc4ccccc43)ccc2n1,,IC50,,DHFR,Mycobacterium avium,,16 µM
CN1C(=O)[C@]23CC4=CC=C[C@H](O)[C@H]4N2C(=O)[C@@]1(CO)SS3,,IC50,,MYCOTHIOL-S-CONJUGATE AMIDASE,Mycobacterium tuberculosis,,50 µM
C[C@@H]1CN(c2c(F)c(N)c3c(=O)c(C(=O)O)cn(C4CC4)c3c2F)C[C@H](C)N1,,IC50,,Gyrase,Mycobacterium tuberculosis,,4.8 µg/mL
CCc1cnc(C2=NC(C)(C(C)C)C(=O)N2)c(C(=O)O)c1,,Ki,,Acetohydroxyacid synthase,Mycobacterium avium,,>1000 µM
CO[C@H]1O[C@@H](n2ccc(=O)[nH]c2=O)C[C@@H]1N=[N+]=[N-],,IC50,,Thymidine monophosphate kinase,Mycobacterium tuberculosis,,810 µM
[N-]=[N+]=N[C@H]1C[C@H](n2cc(Cl)c(=O)[nH]c2=O)O[C@@H]1CO,,Ki,,Thymidine monophosphate kinase,Mycobacterium tuberculosis,,16.03 µM
O=c1[nH]c(=O)n([C@H]2C[C@H](O)[C@@H](CO)O2)cc1O,,IC50,,Thymidine monophosphate kinase,Mycobacterium tuberculosis,,270 µM
Cc1cn([C@@H]2O[C@H](CO)[C@@H](N)[C@H]2Cl)c(=O)[nH]c1=O,,Ki,,Thymidylate kinase,Mycobacterium tuberculosis,,145 µM
CCOC(=O)c1cnn(C)c1S(=O)(=O)NC(=O)Nc1nc(OC)cc(OC)n1,,Ki,,Acetohydroxyacid synthase,Mycobacterium tuberculosis,,7.1 µM
COC(=O)c1ccccc1S(=O)(=O)NC(=O)Nc1nc(OCF)cc(OCF)n1,,Ki,,Acetohydroxyacid synthase,Mycobacterium avium,,18.3 µM
Cc1cn([C@H]2C[C@H](N=[N+]=[N-])[C@@H](COP(=O)([O-])[O-])O2)c(=O)[nH]c1=O,,Ki,,Thymidine monophosphate kinase,Mycobacterium tuberculosis,,28.05 µM
O=C1N=C2C(C(=O)N=C3SC([N+](=O)[O-])=CN32)C(c2c(Cl)cccc2Cl)N1,,inhibition,absorbance,CysK1,Mycobacterium tuberculosis,100 µM,42.2%
CCOc1ccc2cc(-n3nncc3COc3nc(-c4ccccc4)sc3C(=O)OC)c(=O)oc2c1,,IC50,gel / absorbance,DNA gyrase,Mycobacterium tuberculosis,,13.5 µM
O=c1[nH]c(=O)n([C@H]2C[C@H](O)[C@@H](CO)O2)cc1Br,,Ki,,Thymidine monophosphate kinase,Mycobacterium tuberculosis,,625 µM
Cc1ccc2ccccc2[n+]1C,,IC50,HPLC,Mycolate synthetase,Mycobacterium tuberculosis,,1400 µM
COc1cc(Cc2cnc(N)nc2N)cc(OC)c1OC,,IC50,,Dihydrofolate reductase,Mycobacterium tuberculosis,,16.5 µM
Cc1cn([C@@H]2O[C@H](CO)[C@@H](N)[C@H]2O)c(=O)[nH]c1=O,,Ki,,Thymidylate kinase,Mycobacterium tuberculosis,,750 µM
O=c1[nH]c(=O)n([C@H]2C[C@H](O)[C@@H](CO)O2)cc1CO,,IC50,,Thymidine monophosphate kinase,Mycobacterium tuberculosis,,820 µM
C[N+](C)(C)CCCN1c2ccccc2Sc2c1ccc1ccccc21,,IC50,,NADH dehydrogenase,Mycobacterium tuberculosis,,13 µM
Nc1nc(N)nc(-c2ccc(OCc3ccc(Cl)cc3)cc2)n1,,IC50,absorbance,Dihydrofolate reductase,Mycobacterium tuberculosis,,5.175 µM
CCCOc1ccc(N(C)c2cc(C)nc3ccc(Cl)cc23)cc1,H37Rv,IC90,,FtsZ,Mycobacterium tuberculosis,,15.7 µM
C/C(=C\CCC1=CC(=O)c2ccccc2C1=O)CCC[C@@H](C)CCC[C@@H](C)CCCC(C)C,,inhibition,,NADH dehydrogenase,Mycobacterium tuberculosis,40 µM,81%
CCOc1ccc2cc(-n3nncc3COc3nc(-c4ccccc4)sc3C=O)c(=O)oc2c1,,IC50,gel / absorbance,DNA gyrase,Mycobacterium tuberculosis,,7.3 µM
COc1ccc(C2NC(=S)N=C3C2C(=O)N=C2SC([N+](=O)[O-])=CN23)cc1,,inhibition,absorbance,CysK1,Mycobacterium tuberculosis,100 µM,90.9%
O=c1oc(/C(=C/c2ccccc2)c2ccccc2)ns1,,IC50,broth dilution / fluorescence,Proteasome,Mycobacterium tuberculosis,,>100 µM
Cc1cc(N)c2ccccc2[n+]1CCCCCCCCCC[n+]1c(C)cc(N)c2ccccc21,,IC50,HPLC,Mycolate synthetase,Mycobacterium tuberculosis,,24 µM
CCCC[C@H](CN(O)C=O)C(=O)N1CCCC1C(=O)Nc1ccccn1,,IC50,,Peptide deformylase,Mycobacterium tuberculosis,,69.5 µM
Nc1nc(N)c2cc(CN3c4ccccc4C=Cc4ccccc43)cnc2n1,,IC50,,DHFR,Mycobacterium avium,,0.027 µM
O=C(O)c1sc(-c2ccccc2)nc1OCc1cnnn1-c1cc2ccc(O)cc2oc1=O,,IC50,gel / absorbance,DNA gyrase,Mycobacterium tuberculosis,,17.4 µM
CN(C)c1ccc(C2NC(=O)N=C3C2C(=O)N=C2SC([N+](=O)[O-])=CN23)cc1,,inhibition,absorbance,CysK1,Mycobacterium tuberculosis,100 µM,7.3%
COC(=O)c1sc(-c2ccccc2)nc1OCc1cnnn1-c1cc2ccc(N)cc2oc1=O,,IC50,gel / absorbance,DNA gyrase,Mycobacterium tuberculosis,,0.63 µM
C[C@@H](N)[C@H](O)CCCCCCCCCCCCC(=O)CCCCCCCCC[C@@H](O)[C@@H](N)CO,,IC50,,MYCOTHIOL-S-CONJUGATE AMIDASE,Mycobacterium tuberculosis,,100 µM
O=Cc1sc(-c2ccncc2)nc1OCc1cnnn1-c1cc2ccc(O)cc2oc1=O,,IC50,gel / absorbance,DNA gyrase,Mycobacterium tuberculosis,,>25 µM
Cc1cn([C@@H]2O[C@H](CO)[C@@H](N=[N+]=[N-])[C@H]2Cl)c(=O)[nH]c1=O,,Ki,,Thymidylate kinase,Mycobacterium tuberculosis,,170 µM
O=c1ccn([C@@H]2O[C@H](CO/N=C/c3cc([N+](=O)[O-])cc([N+](=O)[O-])c3O)[C@@H](O)[C@H]2O)c(=O)[nH]1,,IC50,,UDP-galactopyranose mutase,Mycobacterium tuberculosis,,>100 µM
Cc1cn([C@@H]2O[C@H](CO)[C@@H](CN)[C@H]2O)c(=O)[nH]c1=O,,Ki,,Thymidine monophosphate kinase,Mycobacterium tuberculosis,,156 µM
C[C@@H]1CN(c2c(F)c(N)c3c(=O)c(C(=O)O)cn(C4CC4)c3c2F)C[C@H](C)N1,H37Rv,IC50,gel,DNA gyrase,Mycobacterium tuberculosis,,2 µg/mL
O=C1N=C2C(C(=O)N=C3SC([N+](=O)[O-])=CN32)C(c2ccccc2C(F)(F)F)N1,,inhibition,absorbance,CysK1,Mycobacterium tuberculosis,100 µM,86.2%
CC1CN(c2cc3c(cc2F)c(=O)c(C(=O)O)cn3-c2ccc(F)cc2F)CCN1,H37Rv,IC50,gel,DNA gyrase,Mycobacterium tuberculosis,,40 µg/mL
Cc1cc(N)c2ccccc2[n+]1C,,IC50,HPLC,Mycolate synthetase,Mycobacterium tuberculosis,,827 µM
Cc1ccccc1/C=C/c1nsc(=O)o1,,IC50,broth dilution / fluorescence,Proteasome,Mycobacterium tuberculosis,,22 µM
COc1nc(C)nc(NC(=O)NS(=O)(=O)c2ccccc2Cl)n1,,Ki,,Acetohydroxyacid synthase,Mycobacterium avium,,215 µM
COc1cnc2ccc(=O)n(CCN3CCC(NCc4cc(Cl)c(Cl)cn4)CC3)c2c1,,IC50,gel,DNA gyrase,Mycobacterium tuberculosis,,5.4 µM
O=C1N=C2C(C(=O)N=C3SC([N+](=O)[O-])=CN32)C(c2ccccc2)N1,,inhibition,absorbance,CysK1,Mycobacterium tuberculosis,100 µM,15.9%